Usually Km stands for the concentration of substrate that gives half-maximal velocity. The kcat is the maximal rate divided by the concentration of active sites.

Amino acid sequences for entries named in this document (tags omitted). Residues count along the entry.
UniProt P0DPI0, 2-448 limits assumed: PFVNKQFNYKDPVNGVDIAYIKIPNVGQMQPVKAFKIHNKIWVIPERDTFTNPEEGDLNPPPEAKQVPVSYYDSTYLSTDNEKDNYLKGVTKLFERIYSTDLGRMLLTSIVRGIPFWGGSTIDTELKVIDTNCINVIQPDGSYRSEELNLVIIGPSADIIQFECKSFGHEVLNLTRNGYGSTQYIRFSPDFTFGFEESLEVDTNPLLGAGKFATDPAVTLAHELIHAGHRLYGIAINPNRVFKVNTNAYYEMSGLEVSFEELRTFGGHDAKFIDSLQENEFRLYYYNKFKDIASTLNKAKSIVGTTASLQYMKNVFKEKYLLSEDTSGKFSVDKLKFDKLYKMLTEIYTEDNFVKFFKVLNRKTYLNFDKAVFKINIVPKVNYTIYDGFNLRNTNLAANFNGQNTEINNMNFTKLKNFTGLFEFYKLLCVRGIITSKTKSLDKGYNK

Data set [1] addresses T1, BoNT A protease activity (Clostridium botulinum, UniProt P0DPI0). To be noted: cited from earlier work.
In data set [2] the target is T1, BoNT A protease activity. The experiment in a line: Kinetic constants of BoNT A substrates taken from the literature (references 25, 26, 27). To be noted: versus flP6.
Data set [3] can be described thus: Solubility in aqueous buffers.
Data set [4] deals with T2, BoNT A light chain (BoNT A Lc) (Clostridium botulinum, UniProt P0DPI0).
Data set [5] has as its target T2, BoNT A light chain (BoNT A Lc). Briefly: FRET fluorescence assay of BoNT A-Lc protease activity with flP6.
The mark [6] stands for this setting: Table 4, FRET substrates, from references (25), (27).
The mark [7] stands for this setting: Table 3, from references (25), (26).

Where two headings read alike, the source gives them in different places. Where only a bound is given, the exact number is not on record here.

With FITC-T(D)RIDQANQ(Ψ)RATK(εDabcyl)nL, the Km at BoNT A protease activity [1] (setting [6]) is no less than 100 µM. The Michaelis constant (Km) at BoNT A protease activity [1] (estimated, reference (27)) was no less than 100 µM. Further, the “type of kinetics (in words)” value at BoNT A protease activity [1] (reported in reference (27), rate linear up to solubility limit) is listed as “non-saturable kinetics”. For the same molecule, on BoNT A protease activity [2], the “Km, fold higher than that of flP6” value came out at 8 fold and the “kcat/Km, fold lower than that of flP6” value amounted to 30 fold.
Take `CC[C@H](C)[C@H](NC(=O)[C@H](CCCNC(=N)N)NC(=O)[C@@H](NC(=O)[C@H](CCCNC(=N)N)NC(C)=O)C(C)C)C(=O)N[C@@H](CC(=O)O)C(=O)N[C@@H](C)C(=O)N[C@@H](C)C(=O)N[C@@H](CC(N)=O)C(=O)N[C@@H](CCC(N)=O)C(=O)N[C@@H](CCCNC(=N)N)C(=O)N[C@@H](C)C(=O)N[C@H](C(=O)N[C@@H](CCCNC(=N)N)C(=O)N[C@@H](CCSC)C(N)=O)[C@@H](C)O`: the “solubility in aqueous buffers” value in data set [3] is “at least 6 mM”. In addition, the Km in data set [4] was 52 µM.
With SNRTRIDEAN[dnpK]RA[daciaC]RML, on BoNT A protease activity [1] (Table 4, FRET substrates, from reference (25)), the kcat is 7.2 ± 0.40 s⁻¹. Also, the Km at BoNT A protease activity [1] (setting [6]) is 96 µM.
Take “[DabcylK] R V R I D A A N Q R A T R M [SFC]”: in data set [4], the Michaelis constant (Km) was 13 µM. Besides, the hydrolysis rate in data set [5] (1.3 μM flP6, 4 nM BoNT A light chain) is recorded as 980 fluorescence units/min; in data set [5] (2.5 μM flP6, 4 nM BoNT A light chain), 1800 fluorescence units/min; in data set [5] (5.0 μM flP6, 4 nM BoNT A light chain), 2999 fluorescence units/min; in data set [5] (10 μM flP6, 1 nM light chain) it was 1030 fluorescence units/min; in data set [5] (10 μM flP6, 2 nM light chain) it was 2220 fluorescence units/min; in data set [5] (10 μM flP6, 3 nM light chain), 3265 fluorescence units/min. Moreover, the hydrolysis rate in data set [5] (10 μM flP6, 4 nM BoNT A light chain) amounted to 5537 fluorescence units/min; in data set [5] (10 μM flP6, 4 nM light chain), 4712 fluorescence units/min; in data set [5] (10 μM flP6, 5 nM light chain), 6049 fluorescence units/min. Besides, the “substrate cleaved by BoNT A-Lc (post-reaction HPLC)” value in data set [5] (10 μM flP6, 5 nM BoNT A-Lc, 15 minutes) was determined as 60%. In data set [5] (10 μM flP6, 5 nM BoNT A-Lc, pH 7.3, 25° C, 3 min to 7 min, three assays), the “average slope (reaction rate) of linear portion of fluorescence curve” value is 6381±1204 fluorescence units/min. The “fluorescence, fold higher than that of the blank” value in data set [5] (10 μM flP6, 5 nM light chain, at 15 minutes) is 28 fold. Further, the “stability in the assay conditions (fluorescence of blank)” value in data set [5] (10 μM flP6 without BoNT A-Lc, pH 7.3, 25° C) is on record as “stable”. Besides, the “net fluorescence increase compared with Fl-A” value in data set [5] (10 μM substrate, 5 nM BoNT A light chain) was “seven-fold higher”.
S N K T R I D E A N Q R A T K M L: at BoNT A protease activity [1] (setting [7]), the Km was 1100 µM and the kcat is 23 ± 1.0 s⁻¹.

The record behind these values is patent publication US20120202754A1 (priority 2009, published 2012).
